A mixed list of measured activities; the numbers were collected in NIAID ChemDB.

Common to all: growth or infection tests; species: Toxoplasma gondii

Blank or dashed fields: not listed here. A number after MIC or MFC names an inhibition level or a share of isolates. Neighbouring rows are from separate reports. ECn: concentration that inhibits the pathogen or its effect by n%. Percent inhibition refers to the dose given; in toxicity tests it is the harm to the cells.

SMILES | tested at | read-out | cells | strain or isolate | result
CCC(C)C#Cc1c(C)nc(N)nc1N |  | MIC |  |  | 0.1 µg/mL
COc1cccc(NC(=S)NC(=O)c2ccccc2COc2ccc(Cl)cc2)c1 |  | EC50 | Human foreskin fibroblasts (HFF) | RH beta-gal | 97 µM
COc1cc(C(=O)NC(=O)c2ccccc2O)cc(OC)c1OC |  | MIC90 | Human foreskin fibroblasts |  | >1 µM
O=C(NC(=S)Nc1ccc(Br)cc1)c1ccccc1COc1ccc(Cl)cc1 |  | EC50 | Human foreskin fibroblasts (HFF) | RH beta-gal | 14 µM
CC(C)(C)c1ccc(CSc2ncnc3c2ncn3[C@@H]2O[C@H](CO)[C@@H](O)[C@H]2O)cc1 | 50 µM | inhibition |  | RH (WILD TYPE) | 87.8%
O=C(NC(=S)Nc1ccc([N+](=O)[O-])cc1)c1ccccc1COc1ccc(Cl)cc1 |  | EC50 | Human foreskin fibroblasts (HFF) | RH beta-gal | 85 µM
COC(=O)CCCC(=O)Nc1ccc(C(=O)NC(=O)c2ccccc2O)cc1 |  | MIC50 | Human foreskin fibroblasts |  | >1 µM
COc1ccc(OCc2ccccc2C(=O)NC(=S)Nc2ccccc2OC)cc1 |  | EC50 | Human foreskin fibroblasts (HFF) | RH beta-gal | 117 µM
Cc1nc(N)nc(N)c1C#CC(C)(C)C |  | MIC |  |  | 0.025 µg/mL
COc1ccc2cc(C(=O)NC(=O)c3ccccc3O)ccc2c1 |  | MIC90 | Human foreskin fibroblasts |  | >0.25 µM
N#CC(c1ccc(Cl)cc1)c1c(Cl)cc(-n2ncc(=O)[nH]c2=O)cc1Cl | 1 µg/mL | inhibition |  | RH | 100%
CC[C@H]1OC(=O)[C@H](C)[C@@H](O[C@H]2C[C@@](C)(OC)[C@@H](O)[C@H](C)O2)[C@H](C)[C@@H](O[C@@H]2O[C@H](C)C[C@H](N(C)C)[C@H]2O)[C@](C)(O)C[C@@H](C)CN(C)[C@H](C)[C@@H](O)[C@]1(C)O |  | EC90 |  | RH | 25.4 µg/mL
N#Cc1ccc(CSc2ncnc3c2ncn3[C@@H]2O[C@H](CO)[C@@H](O)[C@H]2O)cc1 | 50 µM | inhibition |  | RH adenosine kinase-deficient | 0%
CCc1ccc(C(=O)Nc2n[nH]c3ccccc23)cc1 |  | MIC90 | Human foreskin fibroblasts |  | >0.125 µM
COc1ccc(OCc2ccccc2C(=O)NC(=S)Nc2ccccc2I)cc1 |  | EC50 | Human foreskin fibroblasts (HFF) | RH beta-gal | 86 µM
CCc1ccc(NC(=O)Nc2ccccc2O)cc1 |  | MIC50 | Human foreskin fibroblasts |  | >0.125 µM
O=C(NC(=S)Nc1ccc(Br)cc1)c1ccccc1COc1ccc(F)cc1 |  | EC50 | Human foreskin fibroblasts (HFF) | RH beta-gal | 42 µM
O=C(NC(=O)c1ccccc1O)Nc1ccncc1 |  | MIC50 | Human foreskin fibroblasts |  | >0.25 µM
CN1CCC(c2cc(-c3ccncc3)c(-c3ccc(F)cc3)[nH]2)CC1 |  | EC50 |  | ET-PKG FLAG T770Q | 2.9 µM
COc1ccc(OCc2ccccc2C(=O)NC(=S)Nc2c(Br)cccc2Br)cc1 |  | EC50 | Human foreskin fibroblasts (HFF) | RH beta-gal | 24 µM
CCc1ccc(C(=O)NC(=O)c2ccccc2)cc1 |  | MIC90 | Human foreskin fibroblasts |  | >0.25 µM

Again, the opening 2 rows:

| SMILES | tested at | read-out | cells | strain or isolate | result |
|---|---|---|---|---|---|
| CCC(C)C#Cc1c(C)nc(N)nc1N |  | MIC |  |  | 0.1 µg/mL |
| COc1cccc(NC(=S)NC(=O)c2ccccc2COc2ccc(Cl)cc2)c1 |  | EC50 | Human foreskin fibroblasts (HFF) | RH beta-gal | 97 µM |